Values from PubChem BioAssay AID624099 (ICCB-Longwood, 2012).
Screen: 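Human genes that papillomavirus E2 requires to repress the HPV18 LCR promoter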 (primary screen). Cell system: human C33A cervical carcinoma cells (HPV-negative) stably expressing BPV1 E2 and an HPV18 LCR luciferase reporter. Reagents: siRNA pool against human genes, 40 nM. Duration: 72 h. Read-out: 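Per-well luciferase luminescence, z-scored on each plate against the plate mean and SD with control wells left out, then averaged across three replicate plates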. Reading the numbers: mean z-score and z-score: higher = stronger reporter signal, weaker E2 silencing. Active means: 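Mean z ≥ 2 together with z ≥ 2 in two or more of the three replicates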.
The whole screen tested about 21,000 reagents; below is an unselected part. 497 of them (2.4%) count as active. 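Higher z means weaker E2 silencing; only reporter increases were scored, and knock-downs that hurt cell survival may mask genuine repressor factors.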 No sequences are given here.

Depletion of NLGN3 (neuroligin 3) gave: mean z-score 0.93; z-score, replicate A = 0.94; z-score, replicate B = 1.02; z-score, replicate C = 0.82; inactive.
Silencing of LOC284379 gave: mean z-score 1.6; z-score, replicate A = 1.76; z-score, replicate B = 1.79; z-score, replicate C = 1.25; inactive.
Knock-down of CD302 (CD302 molecule) came out at: mean z-score 1.39; z-score, replicate A = 1.44; z-score, replicate B = 1.34; z-score, replicate C = 1.38; inactive.
Silencing of METAP1 (methionyl aminopeptidase 1) resulted in: mean z-score 1.14; z-score, replicate A = 0.82; z-score, replicate B = 1.11; z-score, replicate C = 1.49; inactive.
Silencing of TUT7 (terminal uridylyl transferase 7) resulted in: mean z-score -0.31; z-score, replicate A = -0.02; z-score, replicate B = -0.45; z-score, replicate C = -0.45; inactive.
For RBM22P1 (RNA binding motif protein 22 pseudogene 1), the values are mean z-score 0.96; z-score, replicate A = 1.3; z-score, replicate B = 0.82; z-score, replicate C = 0.76; inactive.
For LINC01743 (long independently transcribed non-coding RNA 1743), the values are mean z-score 0.89; z-score, replicate A = 0.79; z-score, replicate B = 1.19; z-score, replicate C = 0.69; inactive.
Depletion of HSPG2 (heparan sulfate proteoglycan 2) gave: mean z-score 0.91; z-score, replicate A = 0.52; z-score, replicate B = 1.24; z-score, replicate C = 0.99; inactive.

Ordered by “z-score, replicate A” (low to high): some entries from above.
METAP1 (methionyl aminopeptidase 1) | mean z-score = 1.14; z-score, replicate A = 0.82; z-score, replicate B = 1.11; z-score, replicate C = 1.49; Outcome = inactive
CD302 (CD302 molecule) | mean z-score = 1.39; z-score, replicate A = 1.44; z-score, replicate B = 1.34; z-score, replicate C = 1.38; Outcome = inactive
LOC284379 | mean z-score = 1.6; z-score, replicate A = 1.76; z-score, replicate B = 1.79; z-score, replicate C = 1.25; Outcome = inactive

Additional records follow.
With knock-down of SLCO1B7, the record shows mean z-score -0.14; z-score, replicate A = -0.3; z-score, replicate B = -0.08; z-score, replicate C = -0.03; inactive.
For FLJ41327 (retired record), the entry reads mean z-score 0.19; z-score, replicate A = 0.28; z-score, replicate B = 0.25; z-score, replicate C = 0.03; inactive.
ANKRD1 (ankyrin repeat domain 1) showed mean z-score -0.31; z-score, replicate A = -0.68; z-score, replicate B = -0.19; z-score, replicate C = -0.05; inactive.
For SPDYC (speedy/RINGO cell cycle regulator family member C), the entry reads mean z-score -0.7; z-score, replicate A = -0.51; z-score, replicate B = -0.83; z-score, replicate C = -0.76; inactive.
Against AIFM3 (AIF family member 3), the entry reads mean z-score -0.17; z-score, replicate A = 0.55; z-score, replicate B = -0.51; z-score, replicate C = -0.55; inactive.
DEFA1 (defensin alpha 1) gave mean z-score -1.06; z-score, replicate A = -1.11; z-score, replicate B = -1.03; z-score, replicate C = -1.03; inactive.
After knock-down of AKT2 (AKT serine/threonine kinase 2), the screen gave mean z-score -1.12; z-score, replicate A = -0.92; z-score, replicate B = -1.23; z-score, replicate C = -1.21; inactive.
IFIT1 (interferon induced protein with tetratricopeptide repeats 1) showed mean z-score 1.23; z-score, replicate A = 1.22; z-score, replicate B = 1.37; z-score, replicate C = 1.11; inactive.
VPS9D1 (VPS9 domain containing 1) gave mean z-score -1.11; z-score, replicate A = -0.88; z-score, replicate B = -1.28; z-score, replicate C = -1.18; inactive.
For LOC342970 (retired record), the entry reads mean z-score 0.27; z-score, replicate A = 0.41; z-score, replicate B = 0.14; z-score, replicate C = 0.26; inactive.
Silencing of LOC401065 (retired record) resulted in: mean z-score -0.21; z-score, replicate A = -0.21; z-score, replicate B = 0; z-score, replicate C = -0.41; inactive.
With knock-down of HLX (H2.0 like homeobox), the record shows mean z-score 0.85; z-score, replicate A = 0.73; z-score, replicate B = 0.85; z-score, replicate C = 0.97; inactive.
Knock-down of CCDC68 (coiled-coil domain containing 68) gave: mean z-score 0.46; z-score, replicate A = 0.09; z-score, replicate B = 0.88; z-score, replicate C = 0.41; inactive.
